Results taken from the supplement of paper PMC3578754.
Fold change is the IC50 on the isolate divided by the IC50 on a reference virus; 1 = unchanged, higher = more resistant. Changes are given against the subtype B consensus. No active / inactive call. The values were gathered from many studies (numbered anew) with different assays, which the source does not name. Most viruses are clinical isolates; some are laboratory strains or clones with known resistance changes. Isolates with mixed residues are left out; stretches that were not sequenced show no change. Round top values that many isolates share are read here as limits; other very high values and 0.1 may be limits too.

Key:
Assay in all cases: fold change of IC50 against reference virus; higher = more resistant
didanosine = compound: O=c1[nH]cnc2c1ncn2[C@H]1CC[C@@H](CO)O1 [didanosine]
Method: (§1)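 Cell-culture drug susceptibility tests of virus bearing the reverse transcriptase of each isolate, gathered from many studies.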

abacavir = compound: Nc1nc(NC2CC2)c2ncn([C@H]3C=C[C@@H](CO)C3)c2n1 [abacavir]
Method: as §1

delavirdine = compound: CC(C)Nc1cccnc1N1CCN(C(=O)c2cc3cc(NS(C)(=O)=O)ccc3[nH]2)CC1 [delavirdine]
Method: as §1

emtricitabine = compound: Nc1nc(=O)n([C@@H]2CS[C@H](CO)O2)cc1F [emtricitabine]
Method: as §1

zidovudine = compound: Cc1cn([C@H]2C[C@H](N=[N+]=[N-])[C@@H](CO)O2)c(=O)[nH]c1=O [zidovudine]
Method: as §1

tenofovir = compound: C[C@H](Cn1cnc2c(N)ncnc21)OCP(=O)(O)O [tenofovir]
Method: as §1

nevirapine = compound: Cc1ccnc2c1NC(=O)c1cccnc1N2C1CC1 [nevirapine]
Method: as §1

efavirenz = compound: O=C1Nc2ccc(Cl)cc2[C@@](C#CC2CC2)(C(F)(F)F)O1 [efavirenz]
Method: as §1

stavudine = compound: Cc1cn([C@H]2C=C[C@@H](CO)O2)c(=O)[nH]c1=O [stavudine]
Method: as §1

zalcitabine = compound: Nc1ccn([C@H]2CC[C@@H](CO)O2)c(=O)n1 [zalcitabine]
Method: as §1

Row | Test System | fold change of IC50 against reference virus (didanosine) | fold change of IC50 against reference virus (abacavir) | fold change of IC50 against reference virus (delavirdine) | fold change of IC50 against reference virus (emtricitabine) | fold change of IC50 against reference virus (zidovudine) | fold change of IC50 against reference virus (tenofovir) | fold change of IC50 against reference virus (nevirapine) | fold change of IC50 against reference virus (efavirenz) | fold change of IC50 against reference virus (stavudine) | fold change of IC50 against reference virus (zalcitabine)
1 | HIV-1 isolate 61 (reverse transcriptase changes: V118I K122R D123E G196E Q207E R211K F214L, study 15) | 0.9 | 0.8 | 1.2 | 0.9 | 1.2 | 0.9 | 1 | 1 | 0.8 | –
2 | HIV-1 isolate 571 (reverse transcriptase changes: K20R E28K K32E T39A M41L E44D D67N V118I D123E I135K Q174R D177E M184V G196E T200A L210W R211K T215Y V245E E297K, study 15) | 1.6 | 6.1 | 0.1 | ≥ 200 | 35 | 1.3 | 0.2 | 0.3 | 2.4 | –
3 | HIV-1 isolate 433 (reverse transcriptase changes: K20R A33G D67G T69D K70R V118I K122E I135T M184V Q197P T200A F214L K219Q T286P I293V E297A, study 15) | 1.3 | 3.6 | 0.8 | ≥ 200 | 2.4 | 0.8 | 0.4 | 0.5 | 1.2 | –
4 | HIV-1 isolate 907 (reverse transcriptase changes: M41L M184V Y188L T215Y, study 15) | 1.2 | 5 | 2.6 | ≥ 200 | 6 | 1 | 300 | 66 | 0.9 | –
5 | HIV-1 isolate 766 (reverse transcriptase changes: M41L V60I D67N T69N K70R K101H D123E I142V K166R D177E M184V G196E T200I I202V R211K T215F K219Q A272P K277R T286A I293V E297Q I329V, study 83) | 1.9 | 6.1 | 1.8 | ≥ 200 | 16 | 1.3 | 1.5 | 0.7 | 2.1 | –
6 | HIV-1 isolate 563 (reverse transcriptase changes: M41L K122E D123E I142V K166R M184V Q207E R211K T215Y V245E A272P K281R E297K, study 15) | 1.7 | 5.6 | 0.3 | 300 | 4.9 | 1.1 | 0.6 | 0.3 | 1.6 | –
7 | HIV-1 isolate 337 (reverse transcriptase changes: L74I Q151L, study 136) | 1.1 | 1 | – | 1.8 | 0.1 | 0.1 | – | – | 0.8 | –
8 | HIV-1 isolate 151 (reverse transcriptase changes: K122E Y181C M184V F214L A272P K277R A376T A400T D460N S468T H483Y K512Q S519N, study 44) | – | – | – | 5000 | 1 | – | 126 | – | – | 4
9 | HIV-1 isolate 1146 (reverse transcriptase changes: V75T K122E F214L A272P K277R A376T A400T D460N S468T H483Y K512Q S519N, study 20) | 5.5 | – | – | 3 | 2 | – | – | – | 7.6 | 19
10 | HIV-1 isolate 1102 (reverse transcriptase changes: K70E L74I Q151L L187F, study 136) | 1.3 | 1.1 | – | 3.4 | 0.1 | 0.1 | – | – | 1.1 | –
11 | HIV-1 isolate 598 (reverse transcriptase changes: K20R T39N V60I D67N T69N K70R K122E I135T Q174H D177E V179I M184V I195T T200A R211T F214L K219Q A272P L282F A288T E297K, study 15) | 1.1 | 2.6 | 0.2 | ≥ 200 | 1.1 | 0.8 | 0.2 | 0.2 | 0.9 | –
12 | HIV-1 isolate 1377 (reverse transcriptase changes: M41L K122E F214L T215Y A272P K277R A376T A400T D460N S468T H483Y K512Q S519N, study 44) | 2.4 | – | – | 4 | 1 | – | 1 | – | – | 3
13 | HIV-1 isolate 545 (reverse transcriptase changes: A62V V75I F77L F116Y Q151M M184V, study 136) | 14 | 21 | – | 110 | 42 | 0.8 | – | – | 6.3 | –
14 | HIV-1 isolate 1435 (reverse transcriptase changes: K122E F214L A272P K277R A376T A400T D460N S468T H483Y K512Q S519N, study 20) | 1 | – | – | 1 | 1 | – | – | – | 1 | 1
15 | HIV-1 isolate 741 (reverse transcriptase changes: K122E M184V F214L A272P K277R A376T A400T D460N S468T H483Y K512Q S519N, study 44) | 2.8 | – | – | 5000 | 1 | – | 1 | – | – | 3
16 | HIV-1 isolate 238 (reverse transcriptase changes: Q151M, study 136) | 4 | 3.6 | – | 1.4 | 2 | 0.8 | – | – | 3.2 | –

Row | Test System | fold change of IC50 against reference virus (didanosine) | fold change of IC50 against reference virus (abacavir) | fold change of IC50 against reference virus (delavirdine) | fold change of IC50 against reference virus (emtricitabine) | fold change of IC50 against reference virus (zidovudine) | fold change of IC50 against reference virus (tenofovir) | fold change of IC50 against reference virus (nevirapine) | fold change of IC50 against reference virus (efavirenz) | fold change of IC50 against reference virus (stavudine) | fold change of IC50 against reference virus (zalcitabine)
17 | HIV-1 isolate 168 (reverse transcriptase changes: D67N K70R K122E M184V F214L T215Y K219Q A272P K277R A376T A400T D460N S468T H483Y K512Q S519N, study 44) | 2.4 | – | – | 5000 | 17 | – | – | – | – | 4
18 | HIV-1 isolate 1019 (reverse transcriptase changes: M16V V35I T39A D67N K70R R83K K101A V106I K122P I178M V179I M184V G190A R211K K219Q I244V A272P, study 15) | 1.3 | 3 | – | 300 | 0.8 | 0.5 | – | – | 0.9 | –
19 | HIV-1 isolate 693 (reverse transcriptase changes: M41L K122E M184V F214L A272P K277R L282Y A376T A400T D460N S468T H483Y K512Q S519N, study 44) | 3.9 | – | – | 5000 | 5 | – | 1 | – | – | 6
20 | HIV-1 isolate 47 (reverse transcriptase changes: M41L K122E Y181C M184V F214L T215Y A272P K277R A376T A400T D460N S468T H483Y K512Q S519N, study 44) | 2.1 | – | – | 5000 | 4 | – | 80 | – | – | 4
21 | HIV-1 isolate 1632 (reverse transcriptase changes: A62V V75I F77L Y115F F116Y Q151M Y181C M184V, study 136) | 13 | 35 | – | 110 | 88 | 1.2 | – | – | 7.1 | –
22 | HIV-1 isolate 985 (reverse transcriptase changes: Q151L, study 136) | 1.2 | 0.6 | – | 1.1 | 0.1 | 0.1 | – | – | 0.7 | –
23 | HIV-1 isolate 489 (reverse transcriptase changes: E40F M41L K43E D67N V108I V118I K122E D123E Y181C L210W R211K T215Y K219N A272P T286A, study 65) | 2.5 | 6.8 | 56 | 7.6 | – | 4.6 | ≥ 400 | 1.2 | 6.4 | –
24 | HIV-1 isolate 182 (reverse transcriptase changes: A62V V75I F77L F116Y Q151M, study 136) | 13 | 7 | – | 8.1 | 128 | 2.5 | – | – | 15 | –
25 | HIV-1 isolate 1038 (reverse transcriptase changes: V35M K49R D67G S68G K70R D121H K122E D123S I135T Q174R P176T I178M Y181C T200A R211K T215F D218E K219E V245Q L260I K277R, study 15) | 1.1 | 2.5 | 41 | 3 | 97 | 2.3 | ≥ 400 | – | 1.7 | –
26 | HIV-1 isolate 869 (reverse transcriptase changes: T39A M41L D67N L74V V118I K122E I135T I142V M184V R211K T215Y D218E K219Q R284K, study 15) | 2.5 | 7.4 | 0.3 | ≥ 200 | – | 0.6 | 0.3 | 0.3 | 2 | –
27 | HIV-1 isolate 283 (reverse transcriptase changes: K70R V90I A98S D123E M184V R211K A272P K281R E297K, study 15) | 1.1 | 2.8 | – | 300 | 0.5 | 0.5 | – | – | 0.7 | –
28 | HIV-1 isolate 808 (reverse transcriptase changes: D67N K70R K122E F214L T215Y K219Q A272P K277R A376T A400T D460N S468T H483Y K512Q S519N, study 44) | 1.9 | – | – | 6 | 126 | – | 1 | – | – | 2
29 | HIV-1 isolate 1597 (reverse transcriptase changes: D67N K70R K122E Y181C M184V F214L T215Y K219Q A272P K277R A376T A400T D460N S468T H483Y K512Q S519N, study 44) | 1.6 | – | – | 5000 | 4 | – | 46 | – | – | 4
30 | HIV-1 isolate 967 (reverse transcriptase changes: A62V V75I F77L F116Y Q151M, study 136) | 13 | 19 | – | 33 | 65 | 2.9 | – | – | 14 | –
31 | HIV-1 isolate 367 (reverse transcriptase changes: K70E L74I Q151L, study 136) | 1.4 | 1.5 | – | 3.9 | 0.1 | 0.1 | – | – | 1.3 | –
32 | HIV-1 isolate 1427 (reverse transcriptase changes: K122E F214L A272P K277R A376T A400T D460N S468T H483Y K512Q S519N, study 144) | 1 | – | – | 1 | 1 | – | 1 | – | – | 1
